Laboratory results published in article PMC3440409.

Biological target: T1, His-AphA (Vibrio parahaemolyticus RIMD 2210633) (UniProt Q87L53)
T1 sequence: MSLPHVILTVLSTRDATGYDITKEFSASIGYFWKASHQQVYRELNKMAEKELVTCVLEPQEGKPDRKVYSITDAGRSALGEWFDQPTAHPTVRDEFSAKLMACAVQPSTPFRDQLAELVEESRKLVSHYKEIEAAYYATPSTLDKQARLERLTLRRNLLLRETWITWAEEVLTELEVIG
Assay: EMSA
Settings: dose-dependent, poly(dI-dC); 1 mM MgCl2, 0.5 mM EDTA, 0.5 mM DTT, 50 mM NaCl, 10 mM Tris-HCl pH 7.5, 0.05 mg/ml poly(dI-dC), 10 ul, room temperature 30 min; footprinting in same buffer; recombinant protein; residues 1-179; label: 5'-32P; probe letters rebuilt from the primers and the genome

TGTGGGTTGAGGTAGGTCGCACGCAAACGATCACCTAATCTTACGGCGTGTAGTGTATCACCACGAAGAGTGGGTTGAAAGTCACATCCTTTTGCGGAAAATTCTTGGGAGCGCTGCCAAATTTTCGAAAGTTTACAGCAAAACTTATCAATAATAATGACATTACTGTCTATAAATTATCCATCAGATGTTGACCTTGTGCATATGCACCATTACACTCATCACTGCTTAAAGCAATTATTAAAATAATCAATTAGGGGGTTACCCCCAACAACAACTCAAATGGCAAGGAAAATGGATATGGACTCAATTGCAAAGAGACCTAGAACTAGGC (double strand) [opaR promoter fragment (EMSA)]
binding result: binds
